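Whole-cell growth test on Mycobacterium tuberculosis, read after 3 days in glucose-containing 7H9 medium; the read-out is not stated. Concentration: 50 µM. Higher reads as more growth inhibition (inferred: compounds with an IC50 in retests scored well above the rest). About 69,000 compounds were tested under these conditions; 1.1% (about 760) showed 50% or more at least once.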

Values are the deposited “Percent Effect”, in %. The controls that fix the scale are not given in the record; negative values are as filed. The entries come from a sample that favours strong results. Two or more numbers in one place are separate tests of the same structure; such repeats can differ widely.

SMILES,percent effect
CCSc1ncc(CN2CCN(c3nc(C)cnc3C)CC2)cn1,28.11%
NC(=O)CN(Cc1ccc(Br)cc1)C(=O)c1ccccn1,12.57%
COc1ccc(Oc2ncccc2C(F)(F)F)cc1CN1CCCC1,-22.17% and 19.49%
CN(Cc1cccc(-n2cccn2)c1)Cc1cccs1,8.374%
c1ccc(-c2nc3c(c(NCc4nnc5n4CCC5)n2)CCNC3)cc1,3.645% and -11.33%
O=C(c1ccc2c(c1)OCO2)N1C[C@@H](CN2CCCCC2)[C@@H](CO)C1,-2.863%
Cn1ccnc1CN1CCN(CC(O)c2ccc(F)cc2)CC1 (configuration not stated),-3.582%
O=C(NCC1(c2ccc(F)cc2)CC1)N1CCC2(CCOC2)C1 (configuration not stated),-1.736% and 62.04%
O=C(c1cccc2cn[nH]c12)N1CCCC1c1noc(C2CC2)n1 (configuration not stated),8.359%
Cc1cc(N2CCN(Cc3ccc(-c4cc[nH]n4)o3)CC2)cc(C)n1,-7.26%
Cc1ccc(-n2nnc(C(=O)NCC3CCCCC3)n2)cc1,8.106% and -4.949%
Cc1nccn1-c1cc(CNS(=O)(=O)N2CCCC(C)C2)ccn1 (configuration not stated),-35.57%
NCc1n[nH]c(-c2ccc(F)cc2)n1,-7.7% and -2.696%
Nc1cc(N2CCCC(COc3ccc(F)cc3)C2)nc(N)n1 (configuration not stated),12.26%
O=C1Nc2ccccc2CN(CC2CCCC2)C12CCNC2 (configuration not stated),70.11%
COc1cccc(CNCc2cccnc2-n2cccn2)c1OC,104% and 2.555%
CC(c1nc(-c2ccccc2)no1)N1CC(n2cccn2)C1 (configuration not stated),15.76% and 2.241%
CN(C)CCNC(=O)c1ccn(-c2ccc3ccccn23)n1.O=C(O)C(F)(F)F,60.45%
CC(C)Oc1ccc(CNC(=O)c2cc(C(N)=O)cs2)cc1F,13.97%
CS(=O)(=O)NC[C@H]1Cn2c(-c3ccc(F)cc3)cnc2CO1,-24.89% and 0.3723%
COC(=O)CN(C)Cc1cc(Br)cs1,-2.206%
FC(F)(F)Sc1ccccc1NCc1nc(C2CC2)no1,52.77% and 53.47%
CC1COc2ccccc2N1C(=O)CCc1cscn1 (configuration not stated),32.33% and 16.98%
CCc1onc(C)c1C(=O)N1CCC(c2cc3ncccc3cn2)CC1,14.39%
CN1CCN(C(=O)c2cc(-c3cccs3)cs2)CC1,11.81%
Cc1cc(CNc2cncc(C(=O)N(C)C)n2)c2[nH]c(C)c(C)c2c1,-26.68%
O=C(NC1CCN(c2ncccn2)CC1)c1cc2c(cc1O)CCCC2,22.67% and 16.95%
CN1CCc2nc(C3CCCN(S(=O)(=O)c4ccccc4)C3)ncc2C1 (configuration not stated),26%
O=C(CN1CCCC1Cn1cncn1)NCCOc1cccc(F)c1 (configuration not stated),58.47%
CCNc1cc2c(nn1)CCN(C(=O)C1Cc3ccccc3O1)C2 (configuration not stated),-8.588%
CC(C)c1nc(CN(C)S(=O)(=O)c2cccs2)cs1,3.739% and 1.785%
Cc1ccc(S(=O)(=O)NC(C)(C)CN)c(F)c1.Cl,25.19% and 2.006%
CCOC(=O)Cn1nnnc1-c1ccccc1,0.1505%
O=C(Nc1cccnc1)C1Cc2nc(-c3ccsc3)sc2N1CC1CC1.O=C(O)C(F)(F)F (configuration not stated),-12.01%
CSc1ncnc(NCc2cccs2)c1C#N,15.88% and 3.567%
CC(C)=CCCC(C)(O)c1cc(C(N)=O)no1 (configuration not stated),14.12% and 15.99%
Cc1ccc2c(c1)OCCCC2NCc1nccn1Cc1ccccc1 (configuration not stated),42.78%
CCNc1ncc(C(=O)N2CCOC(CCCC(C)C)C2)cn1 (configuration not stated),56.7%
OCCOCCNCC1(c2ccc(F)cc2)CCOC1 (configuration not stated),31.64%
COc1cccc2c3c(c(=O)[nH]c12)CCC(C)(C)O3,14.19% and 24.99%
Cc1ccc(-c2nc(CN3CCOC(Cn4cncn4)C3)cs2)o1 (configuration not stated),-4.397%
Fc1cc(Oc2ccc(C(F)(F)F)cn2)cc(F)c1CN1CCCC1,7.435%
CCC1=NC(SCC(=O)c2ccc(Cl)cc2)c2cc(CC)sc2N1 (configuration not stated),-5.276%
CC(C)Cc1ncc2c(n1)CN(c1nc3ccccc3cc1CO)C2,11.17% and -7.182%
CCn1nc(C)c2nc(C)nc(NCCc3ccc(C)cc3)c21,30.52% and 53.23%
CCC(CO)NCc1ccc(-c2ccc(F)c(Cl)c2)o1.Cl (configuration not stated),36.25% and 26.31%
O=C1COC2(CCN(Cc3ccco3)CC2)CN1Cc1cccnc1,-4.174%
O=C1NCC2(CCCN(C(=O)c3csc(-c4cccs4)n3)C2)O1 (configuration not stated),26.44% and -0.2976%
CC(C)C(=O)NS(=O)(=O)CCc1ccccc1,5.527% and 11.64%
CN(C)c1ncnc2c1CCN(c1ccccc1)CC2,-9.271% and -23.93%
CCn1nc(C)c2c1cnn2CCNS(=O)(=O)Cc1ccccc1,57.91%
COCC1CN(Cc2ccsc2)Cc2cnn(C)c21 (configuration not stated),24.23%
O=C(NC[C@@H]1CCCO1)c1cc(Br)cnc1N1CCCCC1,-19.13%
CCn1nc(C)c2nc(C(C)C)nc(N(C)Cc3ccco3)c21,34.95%
CNC(=O)NC(=O)CCN1CCN(c2nccs2)CC1,16.15%
COCCN1CC=C(c2cccc(OC)c2)CC1,3.874%
CCCc1cc(=O)[nH]c(-n2nc(-c3cccs3)cc2N)n1,12.72%
COCCN(c1ccncc1)S(=O)(=O)c1cc(C)c(F)cc1F,-3.79% and -19.09%
N#CC1(C(=O)N2CCN(c3nccs3)CC2)CCCCC1,11.87%
COCc1noc(-c2ccc(N(C)Cc3cc(C)no3)nc2)n1,38.16%
O=C(NCCOc1ncc(Cl)cc1Cl)c1ccncc1,0.8383%
CCc1ccc2nc(NCCCN(CCO)CCO)cc(C)c2c1,55.29%
CC(=O)N1CCCC(c2ccc(Cc3ccccc3)cn2)C1 (configuration not stated),81.81%
Cc1ccc2c(c1)N(C(=O)c1nccnc1N)CC(C)O2 (configuration not stated),19%
CN(Cc1nc(N)c2ccccc2n1)C1CCCN(c2cccnn2)C1 (configuration not stated),50.84%
CSCC(=O)N(C)Cc1ccc(N(C)C)cc1,12.2%
CCCNc1ncc(CN2CCOC(Cc3cccc(F)c3)C2)cn1 (configuration not stated),-17.44%
COc1ccc(NC(=O)Cn2nc(C)c(C)cc2=O)cc1,13.1%
O=C(NCC1(O)COCCN(Cc2cccc(O)c2)C1)c1cscn1 (configuration not stated),67.55%
CCc1csc(C2CCCN(C(=O)c3cc(C4CC4)[nH]n3)C2)n1 (configuration not stated),50.71%
OCc1cc2ccccc2nc1N1CCCC1,22.24%
O=C(NCc1cc2ccccc2[nH]1)C1CCCN(C(=O)N2CCCC2)C1 (configuration not stated),24.29%
CC(CNC(=O)c1cnccn1)Oc1ccc(F)cc1 (configuration not stated),37.96%
NC1CCN(S(=O)(=O)c2ccc(C(=O)N3CCSCC3)cc2)C1 (configuration not stated),14.9% and -6.974%
O=C(Nc1ccccn1)c1csc(NC2CCCC2)n1,35.58% and 48.73%
CC(Nc1ccc2c(c1)CCC2)c1nc(C2CC2)no1 (configuration not stated),40.23%

For reference, 7 entries once more:

Fc1cc(Oc2ccc(C(F)(F)F)cn2)cc(F)c1CN1CCCC1 gave 7.435%.
O=C(NCC1(O)COCCN(Cc2cccc(O)c2)C1)c1cscn1 (configuration not stated) gave 67.55%.
COCCN(c1ccncc1)S(=O)(=O)c1cc(C)c(F)cc1F gave -3.79% and -19.09%.
CN1CCN(C(=O)c2cc(-c3cccs3)cs2)CC1 gave 11.81%.
CN(C)c1ncnc2c1CCN(c1ccccc1)CC2 gave -9.271% and -23.93%.
CC(Nc1ccc2c(c1)CCC2)c1nc(C2CC2)no1 (configuration not stated) gave 40.23%.
NC1CCN(S(=O)(=O)c2ccc(C(=O)N3CCSCC3)cc2)C1 (configuration not stated) gave 14.9% and -6.974%.

From ChEMBL document CHEMBL3988442, “University of Dundee, Small-Polar-MMV Screening Library” (2021).